# Potato spindle tuber viroid, loop 15: variant abundance in plants

Source: Wu et al. 2024 (doi:10.1371/journal.ppat.1012142), supplementary data.

Region: loop 15 of PSTVd (intermediate strain), upper and lower strand joined, each 5' to 3', the first 7 letters being the upper strand, closing pairs included. Wild type: GGAAACCGCUACUAC. Varied positions (N): GGAAACCGNNNNNNC.

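Three N. benthamiana plants were inoculated with the whole mutant pool. Progeny were sequenced from the inoculated region (day 5), the margin of the inoculated leaf (day 10) and systemic leaves (day 12).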

Numbers give reads per thousand; 0 = not seen among the reads, higher = more abundant.
Each site shows the three plants.
"Pool" is the share in the plasmid pool used as inoculum, on the same scale.
The inoculated region was read from the minus strand, the other sites from the plus strand.
IR is the inoculated region, LM the leaf margin, Sys the systemic leaves.
With 43,870-66,106 reads a sample, very low values are single reads.

sequence,pool,IR,LM,Sys
GGAAACCGGAGGGAC,0.208,0.0983 / 0.0643 / 0.0952,0 / 0.0445 / 0,0 / 0 / 0
GGAAACCGGAGGGCC,0.144,0.0328 / 0.145 / 0.0952,0 / 0 / 0,0 / 0 / 0
GGAAACCGGAGGGGC,0.272,0.0819 / 0.0321 / 0.114,0 / 0 / 0.0200,0 / 0 / 0
GGAAACCGGAGGGUC,0.256,0.0983 / 0.0803 / 0.190,0 / 0 / 0.0200,0 / 0 / 0
GGAAACCGGAGGUAC,0.224,0.278 / 0.321 / 0.228,0.113 / 0.134 / 0.0801,0.0483 / 0 / 0
GGAAACCGGAGGUCC,0.352,0.0819 / 0.0803 / 0.0571,0.0162 / 0 / 0.0200,0 / 0 / 0
GGAAACCGGAGGUGC,0.176,0.0819 / 0.0482 / 0.114,0.0162 / 0 / 0.0200,0 / 0 / 0
GGAAACCGGAGGUUC,0.192,0.115 / 0.0643 / 0.0762,0 / 0 / 0.0200,0 / 0 / 0
GGAAACCGGAGUAAC,0.256,0.180 / 0.0803 / 0.0190,0.0162 / 0 / 0,0 / 0 / 0
GGAAACCGGAGUACC,0.416,0.0491 / 0.0482 / 0.0952,0 / 0 / 0,0.0161 / 0 / 0
GGAAACCGGAGUAGC,0.160,0.115 / 0.0803 / 0.0952,0 / 0 / 0.0401,0 / 0 / 0
GGAAACCGGAGUAUC,0.192,0.0983 / 0.0803 / 0.114,0.0323 / 0 / 0,0 / 0 / 0
GGAAACCGGAGUCAC,0.288,0.0983 / 0.0482 / 0.0571,0.0162 / 0 / 0,0 / 0 / 0
GGAAACCGGAGUCCC,0.224,0.0655 / 0.145 / 0.0571,0 / 0 / 0,0 / 0 / 0
GGAAACCGGAGUCGC,0.256,0.0655 / 0.193 / 0.0762,0 / 0 / 0.0401,0 / 0 / 0
GGAAACCGGAGUCUC,0.256,0.115 / 0.177 / 0.0381,0 / 0 / 0,0 / 0 / 0
GGAAACCGGAGUGAC,0.352,0.0328 / 0.0803 / 0.114,0 / 0 / 0,0 / 0 / 0
GGAAACCGGAGUGCC,0.224,0.164 / 0.0643 / 0.114,0 / 0 / 0,0 / 0 / 0
GGAAACCGGAGUGGC,0.192,0.0491 / 0.129 / 0.171,0 / 0.0223 / 0,0 / 0 / 0
GGAAACCGGAGUGUC,0.224,0.0655 / 0.0803 / 0.0952,0.0162 / 0 / 0,0.0161 / 0 / 0
GGAAACCGGAGUUAC,0.192,0.115 / 0.0964 / 0.0952,0 / 0 / 0,0 / 0 / 0
GGAAACCGGAGUUCC,0.256,0.115 / 0.112 / 0.0952,0 / 0 / 0,0 / 0 / 0
GGAAACCGGAGUUGC,0.288,0.0983 / 0.112 / 0.0381,0 / 0 / 0.0200,0 / 0 / 0
GGAAACCGGAGUUUC,0.208,0.0983 / 0.112 / 0.0571,0.0162 / 0 / 0.0200,0.0161 / 0 / 0
GGAAACCGGAUAAAC,0.208,0.0655 / 0.0964 / 0.0952,0 / 0 / 0,0 / 0 / 0
GGAAACCGGAUAACC,0.272,0.131 / 0.0161 / 0.114,0 / 0 / 0.0200,0 / 0 / 0
GGAAACCGGAUAAGC,0.272,0.164 / 0.112 / 0.152,0 / 0.0223 / 0,0 / 0 / 0
GGAAACCGGAUAAUC,0.208,0.131 / 0.0643 / 0.0571,0.0323 / 0 / 0.0200,0 / 0 / 0
GGAAACCGGAUACAC,0.320,0.0655 / 0.0803 / 0.152,0 / 0 / 0.0401,0 / 0 / 0
GGAAACCGGAUACCC,0.176,0.131 / 0.0321 / 0.0381,0 / 0 / 0,0 / 0 / 0
GGAAACCGGAUACGC,0.224,0.115 / 0.0643 / 0.114,0 / 0.0223 / 0.0601,0 / 0 / 0
GGAAACCGGAUACUC,0.224,0.0983 / 0.161 / 0.0571,0 / 0 / 0.0200,0 / 0 / 0
GGAAACCGGAUAGAC,0.256,0.131 / 0.0643 / 0.133,0.0162 / 0 / 0,0 / 0 / 0
GGAAACCGGAUAGCC,0.256,0.0983 / 0.161 / 0.133,0 / 0 / 0.0401,0.0161 / 0 / 0
GGAAACCGGAUAGGC,0.192,0.0819 / 0.0643 / 0.114,0.0162 / 0 / 0,0 / 0 / 0
GGAAACCGGAUAGUC,0.272,0.246 / 0.177 / 0.133,0 / 0 / 0,0 / 0 / 0
GGAAACCGGAUAUAC,0.208,0.131 / 0.161 / 0.152,0 / 0 / 0,0.0322 / 0 / 0
GGAAACCGGAUAUCC,0.144,0 / 0.112 / 0.0571,0.0162 / 0 / 0.0801,0 / 0 / 0
GGAAACCGGAUAUGC,0.272,0.0983 / 0.0321 / 0.0190,0 / 0 / 0,0 / 0 / 0
GGAAACCGGAUAUUC,0.272,0.147 / 0.0643 / 0.0762,0 / 0.0223 / 0.0401,0 / 0 / 0
GGAAACCGGAUCAAC,0.176,0.0655 / 0.112 / 0.114,0.0162 / 0 / 0.0401,0 / 0 / 0
GGAAACCGGAUCACC,0.0960,0.0491 / 0.0803 / 0.0190,0 / 0 / 0,0 / 0 / 0
GGAAACCGGAUCAGC,0.112,0.0819 / 0 / 0.152,0.0162 / 0.0445 / 0,0 / 0 / 0
GGAAACCGGAUCAUC,0.336,0.0164 / 0.0803 / 0.114,0 / 0 / 0.0200,0 / 0 / 0

Extract of 4 entries:

GGAAACCGGAGUAGC (pool 0.160) read IR 0.115 / 0.0803 / 0.0952; LM 0 / 0 / 0.0401; Sys 0 / 0 / 0.
GGAAACCGGAUAGCC (pool 0.256) read IR 0.0983 / 0.161 / 0.133; LM 0 / 0 / 0.0401; Sys 0.0161 / 0 / 0.
GGAAACCGGAUAGAC (pool 0.256) read IR 0.131 / 0.0643 / 0.133; LM 0.0162 / 0 / 0; Sys 0 / 0 / 0.
GGAAACCGGAUAUGC (pool 0.272) read IR 0.0983 / 0.0321 / 0.0190; LM 0 / 0 / 0; Sys 0 / 0 / 0.

Sequences that differ at fixed positions probably stem from PCR or sequencing errors, and defective variants can be carried along by functional ones.
For reference, wild type rose from 33.9 per thousand in the pool to 202, 200, 159 (inoculated region), 724, 746, 710 (leaf margin) and 856, 883, 880 (systemic leaves).